Results of unrelated studies side by side (data: NIAID ChemDB).

All rows: toxicity to cultured cells; cells: MT-4; endpoint: CC50

Rows are shuffled and stem from different studies. CCn is the concentration with n% toxicity to the cells. Blank or dashed fields: not listed here.

compound,read by,result
C=C1[C@H](OC(C)=O)[C@H]2[C@@H](OC(C)=O)[C@@H](C)C[C@]2(OC(C)=O)C(=O)[C@@H](C)/C=C/C(C)(C)C(=O)[C@@H](OCC(C)C)[C@H]1OC(C)=O,MTT,45 µg/mL
O=C(O)Cc1cc(O)ccc1O,-,101 µg/mL
COc1ncnc(NS(=O)(=O)c2ccc(N=C3C(=O)N(CN4CCOCC4)c4ccc(C)cc43)cc2)c1OC,-,8.9 µg/mL
COc1cc(Cc2cnc(/N=C3\C(=O)N(CN4CCCCC4)c4ccc(C)cc43)nc2N)cc(OC)c1OC,-,124.6 µM
Cc1cn([C@H]2C=C[C@@H](CO)O2)c(=O)[nH]c1=O,-,>100 µM
CC1(C)[C@@H](CCO)C[C@H]1n1cnc2c(=O)[nH]cnc21,-,108 µg/mL
CC(=O)OC1[C@]2(C)[C@H]3CC(C)(C)C(=O)[C@@H]3C[C@@]1(OC(C)=O)[C@H](OC(=O)CO)[C@H]1[C@@H](OC(=O)c3ccccc3)[C@@H](C)C[C@]1(O)[C@@H]2OC(C)=O,MTT,>100 µg/mL
Nc1ncnc2c1ncn2[C@@H]1CO[C@H](CO)[C@@H](O)C1,-,12.5 µg/mL
Nc1ccn([C@H]2CC[C@@H](CO)O2)c(=O)n1,-,47.3 µM
CCc1c(Cc2cc(C)cc(C)c2)n(COCC#Cc2ccccc2[N+](=O)[O-])c(=O)[nH]c1=O,MTT,10 µM
Cc1cc(C)c(-n2c(SCC(=O)Nc3ccccc3F)nc3cccnc32)c(C)c1,MTT,5.6 µM
O=C(Cl)CCCN1C(=O)c2ccccc2C1=O,MTT,52.8 µM
Nc1ccn([C@@H]2CC[C@H](CO)O2)c(=O)n1,-,473 µM
O=c1[nH]c(=O)n([C@@H]2CO[C@H](CO)[C@@H](O)C2)cc1I,-,>100 µg/mL
CCc1c(Cc2cc(C)cc(C)c2)n(COCC#Cc2cccc(CO[Si](c3ccccc3)(c3ccccc3)C(C)(C)C)c2)c(=O)[nH]c1=O,MTT,>100 µM
NCCC[C@@H](N)CC(=O)NCN,-,>11500 µM
CCOC(=O)c1cc2c3cccc(OC)c3c3ccc(N)cc3n2c1C,-,>200 µM
COc1cc(Cc2cnc(/N=C3\C(=O)N(CN4CCN(c5ccccc5)CC4)c4ccc(C)cc43)nc2N)cc(OC)c1OC,-,116.1 µM
CC1c2nc(C(=O)NCc3ccc(F)cc3)c(O)c(=O)n2CCN1C,microscopy,>1 µM
COc1cc(Cc2cnc(/N=C3\C(=O)N(CN4CCN(c5c(OC)cc6c(c5F)c(=O)c(C(=O)O)cn6C5CC5)CC4C)c4ccc(C)cc43)nc2N)cc(OC)c1OC,-,81.4 µM
CCCc1nc2n(n1)C(c1ccc([N+](=O)[O-])cc1)CC(=O)N2,visual reading,>100 µg/mL
CCOC(=O)c1[nH]c2ccccc2c1S(=O)(=O)c1ccccc1N,-,>200 µM
COc1ncnc(NS(=O)(=O)c2ccc(N=C3C(=O)N(CN4CCCC4)c4ccc(C)cc43)cc2)c1OC,-,10.1 µg/mL
COc1cc(Cc2cnc(/N=C3\C(=O)N(CN4CCCC4)c4ccc(C)cc43)nc2N)cc(OC)c1OC,-,124 µM
CC(=O)N1CCn2c(nc(C(=O)NCc3ccc(F)cc3)c(O)c2=O)C1C,microscopy,>1 µM
Cc1cc(C)c(-n2c(SCC(=O)Nc3ccccc3Br)nc3cccnc32)c(C)c1,MTT,5.6 µM
C=CCOCn1c(Cc2cccc(C(F)(F)F)c2)c(CC)c(=O)[nH]c1=O,-,77 µM
Cc1cc(C)c(-n2c(SCC(=O)Nc3ccccc3F)nc3cnccc32)c(C)c1,MTT,18 µM
Nc1nc(=O)n([C@H]2CC[C@H](CO)O2)cc1F,-,>436 µM
c1c2c(cc3n[nH]nc13)NCCC2,MTT,>100 µM
CCc1c(Cc2cc(C)cc(C)c2)n(COCC#Cc2ccc(CO)cc2)c(=O)[nH]c1=O,MTT,42 µM
COc1ncnc(NS(=O)(=O)c2ccc(N=C3C(=O)N(CN4CCCCC4)c4ccc(C)cc43)cc2)c1OC,-,12.6 µg/mL
Cc1cc(C)c(-n2c(SCC(=O)Nc3ccc(C)cc3[N+](=O)[O-])nc3cnccc32)c(C)c1,MTT,6.2 µM
COc1ccc(C2CC(=O)Nc3nc(C4CCCCC4)nn32)cc1,visual reading,≥100 µg/mL
COc1cccc(N2CCN(CN3C(=O)/C(=N\c4ncc(Cc5cc(OC)c(OC)c(OC)c5)c(N)n4)c4cc(C)ccc43)CC2)c1,-,32.1 µM
O=C1C=CC(=C(c2ccc(O)cc2)c2ccc(O)cc2)C=C1,-,>100 µg/mL
Nc1ccn(C23C=C[C@@H](CO)[C@@H]2C3)c(=O)n1,MTT,61.8 µg/mL
Cc1cc(O)ccc1O,-,127 µg/mL
CC(=O)OCC(=O)O[C@@H]1[C@H]2[C@@H](OC(=O)c3ccccc3)[C@@H](C)C[C@]2(O)[C@H](OC(C)=O)[C@]2(C)C(OC(C)=O)[C@@]1(OC(C)=O)C[C@H]1C(=O)C(C)(C)[C@@H](OC(C)=O)[C@@H]12,MTT,51 µg/mL
COC(=O)C(CO)NC(=O)CCCN1C(=O)c2ccccc2C1=O,MTT,96.11 µM
O=C(OC[C@H]1O[C@@H](OC(=O)c2cc(OS(=O)(=O)O)c(OS(=O)(=O)O)c(OS(=O)(=O)O)c2)[C@H](OC(=O)c2cc(OS(=O)(=O)O)c(OS(=O)(=O)O)c(OS(=O)(=O)O)c2)[C@@H](OC(=O)c2cc(OS(=O)(=O)O)c(OS(=O)(=O)O)c(OS(=O)(=O)O)c2)[C@@H]1OC(=O)c1cc(OS(=O)(=O)O)c(OS(=O)(=O)O)c(OS(=O)(=O)O)c1)c1cc(OS(=O)(=O)O)c(OS(=O)(=O)O)c(OS(=O)(=O)O)c1,-,197 µg/mL
NC(=O)c1[nH]c2ccc(Cl)cc2c1S(=O)(=O)c1ccccc1,-,200 µM
O=C1Nc2ccc(F)cc2[C@@]12C[C@@H]2c1ccccc1,MTT,10.85 µg/mL
CCOCn1c(Cc2cccc(F)c2)c(CC)c(=O)[nH]c1=O,-,>100 µM
O=C(O)c1cc(O)ccc1O,-,72 µg/mL
c1ccc(CCNCc2ccc(CN3CCCNCCNCCCNCC3)cc2)nc1,-,>250 µg/mL
CCCCCc1nc2n(n1)C(c1ccccc1)CC(=O)N2,visual reading,>100 µg/mL
CC(C)(C)[Si](C)(C)OCC1O[C@@H](NC(=O)NC(=O)c2ccccc2)C(O[Si](C)(C)C(C)(C)C)C12OS(=O)(=O)C=C2N,-,14 µM
Cc1cc(C)c(-n2c(SCC(=O)Nc3ccccc3[N+](=O)[O-])nc3cccnc32)c(C)c1,MTT,39 µM
Cc1cc(C#N)cc(C)c1Oc1nc(Nc2cccc(OS(=O)(=O)F)c2)nc2ccsc12,MTT,125 µM
CCOC(=O)c1cc(-c2cccc(N=[N+]=[N-])c2)n(-c2ccccc2)c1C,-,>300 µM
C=CCOCn1c(Cc2cccc(F)c2)c(CC)c(=O)[nH]c1=O,-,>100 µM
CC1(C)[C@@H](CCO)C[C@H]1n1nnc2c(N)nc(N)nc21,-,180 µg/mL
CCc1c(Cc2ccccc2C)n(COC/C(Br)=C(\Br)c2ccccc2)c(=O)[nH]c1=O,MTT,26 µM
O=C(O)c1cc(O)c(O)c(O)c1,-,80 µg/mL
Cc1c(C2(c3c(F)cccc3F)CC2)nc(SC(C)C)[nH]c1=O,MTT,>0.01 µM
CN(C)CC1c2nc(C(=O)NCc3ccc(F)cc3)c(O)c(=O)n2CCN1S(C)(=O)=O,microscopy,>1 µM
COc1ncnc(NS(=O)(=O)c2ccc(N=C3C(=O)N(CN4CCOCC4)c4ccccc43)cc2)c1OC,-,2.2 µg/mL
Cc1cc(C)c(-n2c(SCC(=O)Nc3ccccc3Cl)nc3cnccc32)c(C)c1,MTT,19 µM
Cc1cn([C@H]2C[C@H](N=[N+]=[N-])[C@@H](CO)O2)c(=O)[nH]c1=O,MTT,>25 µM
c1cnc2c(c1)Cc1n[nH]nc1C2,MTT,>100 µM
CCc1c(Cc2cc(C)cc(C)c2)n(COCc2ccc(C#CCO)cc2)c(=O)[nH]c1=O,MTT,41 µM
CN(CC1c2nc(C(=O)NCc3ccc(F)cc3)c(O)c(=O)n2CCN1C)C(=O)CS(C)(=O)=O,microscopy,>1 µM
CCOC(=O)c1cc(-c2cccc(N)c2)n(-c2ccccc2)c1C,-,>300 µM
CCc1c(Cc2ccccc2C)n(COCC#Cc2ccc(NC(=O)C(F)(F)F)cc2)c(=O)[nH]c1=O,MTT,45 µM
CN1C(=O)[C@]2(C[C@@H]2c2ccc(Cl)cc2)c2ccccc21,MTT,7.6 µg/mL
Nc1ccn([C@H]2CC[C@H](CO)O2)c(=O)n1,-,>473 µM
CC1(C)[C@@H](CCO)C[C@H]1n1cnc2c(N)ncnc21,-,≥250 µg/mL
COc1ncnc(NS(=O)(=O)c2ccc(N=C3C(=O)Nc4ccccc43)cc2)c1OC,-,103.7 µg/mL
COc1cc(Cc2cnc(/N=C3\C(=O)N(CN4CCN(c5ccc6c(c5F)c(=O)c(C(=O)O)cn6C5CC5)CC4)c4ccc(C)cc43)nc2N)cc(OC)c1OC,-,86.1 µM
CCc1nc(NCN2C(=O)C(=Nc3ccc(S(=O)(=O)Nc4ncnc(OC)c4OC)cc3)c3cc(C)ccc32)nc(N)c1-c1ccc(Cl)cc1,-,8.5 µg/mL
Cc1cnc(CNCc2ccc(CN3CCCNCCNCCCNCC3)cc2)cn1,-,>250 µg/mL
Cc1cc(C)c(-n2c(SCC(=O)Nc3ccc(S(N)(=O)=O)cc3Br)nc3cccnc32)c(C)c1,MTT,22 µM
O=C1CC(c2ccccc2)n2nc(-c3ccncc3)nc2N1,visual reading,>100 µg/mL
O=C(O)c1ccc(O)c(O)c1,-,75 µg/mL
CC(=O)N1CCn2c(nc(C(=O)NCc3ccc(F)cc3)c(O)c2=O)C1CO,microscopy,>1 µM
O=C1Nc2ccccc2S(=O)(=O)c2c1[nH]c1ccccc21,-,>200 µM

For reference, 8 entries again:

compound	read by	result
COc1ncnc(NS(=O)(=O)c2ccc(N=C3C(=O)N(CN4CCOCC4)c4ccc(C)cc43)cc2)c1OC	-	8.9 µg/mL
Cc1cnc(CNCc2ccc(CN3CCCNCCNCCCNCC3)cc2)cn1	-	>250 µg/mL
NC(=O)c1[nH]c2ccc(Cl)cc2c1S(=O)(=O)c1ccccc1	-	200 µM
COc1cccc(N2CCN(CN3C(=O)/C(=N\c4ncc(Cc5cc(OC)c(OC)c(OC)c5)c(N)n4)c4cc(C)ccc43)CC2)c1	-	32.1 µM
CCOC(=O)c1cc(-c2cccc(N)c2)n(-c2ccccc2)c1C	-	>300 µM
CC1c2nc(C(=O)NCc3ccc(F)cc3)c(O)c(=O)n2CCN1C	microscopy	>1 µM
CCOC(=O)c1cc2c3cccc(OC)c3c3ccc(N)cc3n2c1C	-	>200 µM
O=C1CC(c2ccccc2)n2nc(-c3ccncc3)nc2N1	visual reading	>100 µg/mL